Pooled drug test results. Numbers come from NIAID ChemDB, via PubChem.

All rows: growth or infection tests; agent: HIV-1; measure: EC50

Neighbouring rows are from separate reports.

| smiles | cell line | strain | changes | value |
|---|---|---|---|---|
| CC(C)(C)NC(=O)[C@@H]1CC2CCCCC2CN1C[C@@H](O)[C@H](Cc1ccccc1)NC(=O)[C@H](CC(N)=O)NC(=O)c1ccc2ccccc2n1 | MT-4 | NL4-3 |  | 0.017 µM |
| C/C(=N\O)c1cccc(CN2C(=O)N(Cc3cccc(/C(C)=N/O)c3)[C@H](Cc3ccccc3)[C@H](O)[C@@H](O)[C@H]2Cc2ccccc2)c1 | MT-2 | RF |  | <0.002 µM |
| O=c1[nH]c(=O)n([C@H]2C[C@H](F)[C@@H](CO)O2)cc1/C(I)=C/I | PBMC |  |  | 3.1 µM |
| Nc1ncnc2c1ncn2/C=C1/C[C@@H]1CO | MT-4 |  |  | 50 µM |
| Cc1cccc(C)c1OCC(=O)N[C@@H](Cc1ccccc1)[C@H](O)C(=O)N1CSC(C)(C)[C@H]1C(=O)NC(C)(C)C | MT-4 |  |  | 1.73 µM |
| CNC(=O)[C@@H](NC(=O)[C@H](OCc1ccccc1)[C@H](O)[C@@H](O)[C@@H](OCc1ccccc1)C(=O)N[C@H](C(=O)NC)C(C)C)C(C)C | MT-4 |  |  | 1.3 µM |
| Cc1nc(CCCCCCC(=O)c2ccccc2)n2nc(-n3ccnc3)ccc12 | MT-4 | RF |  | 0.01 µM |
| Cc1cc(C#N)cc(C)c1Oc1nc(Nc2ccc(C#N)cc2)nc(N)c1Br | TZM-bl | LAI | E138R | 0.0053 µM |
| COc1cc(C)c(C(=O)O)c(O)c1C/C=C(\C)CC/C=C(\C)CCC=C(C)C | MT-4 |  |  | >53 µM |
| Cc1cc(C)cc(Cn2c(=S)ccn(Cc3ccccc3)c2=O)c1 | PBMC | IIIB |  | 0.051 µM |
| O=C1N(Cc2cccc(-c3cn[nH]c3)c2)[C@H](Cc2ccccc2)[C@H](O)[C@@H](O)[C@@H](Cc2ccccc2)N1Cc1cccc(-c2cn[nH]c2)c1 | MT-2 | RF |  | <0.032 µM |
| CC(C)OP(=O)(COCC1(Cn2cnc3c(N)ncnc32)CC=CC1)OC(C)C | MT-4 |  |  | >100 µg/mL |
| O=c1[nH]c(=O)n([C@H]2C[C@H](F)[C@@H](CO)O2)cc1/C(Br)=C/I | PBMC |  |  | 0.6 µM |
| COC(=O)c1cccc(CN2C(=O)N(Cc3cccc(-c4ccn[nH]4)c3)[C@H](Cc3ccccc3)[C@H](O)[C@@H](O)[C@H]2Cc2ccccc2)c1 | MT-2 | RF |  | <0.032 µM |
| O=C1N(Cc2ccc(O)cc2)[C@H](Cc2ccc3c(c2)OCCO3)[C@H](O)[C@@H](O)[C@@H](Cc2ccc3c(c2)OCCO3)N1Cc1ccc(O)cc1 | MT-2 | RF |  | <0.107 µM |
| Nc1ncnc2c1ncn2[C@H]1CC[C@@H](CO)O1 | CEM + CEM-SS |  |  | 0.49 µM |
| O=C1N(Cc2cccc(/C=N/O)c2)[C@H](Cc2ccccc2)[C@H](O)[C@@H](O)[C@@H](Cc2ccccc2)N1Cc1cccc(/C=N/O)c1 | MT-2 | RF |  | <0.005 µM |
| Nc1ccn([C@@H]2O[C@H](CO)C=C2F)c(=O)n1 | PBMC | xxBRU |  | <8 µM |
| CC(C)(O)C(O)COc1c2ccoc2cc2oc(=O)ccc12 | H9 |  |  | 10 µg/mL |
| Cc1cn([C@H]2C[C@H](N=[N+]=[N-])[C@@H](CO)O2)c(=O)[nH]c1=O | MT-4 |  |  | 0.0009 µg/mL |
| Nc1nc(=O)n([C@@H]2CS[C@H](CO)O2)cc1F | HT4 + HT4-6C | BI-RG587-resistant |  | 0.02 µM |
| CC(C)[C@H](NC(=O)[C@H](CCCN=C(N)N)NC(=O)N[C@@H](Cc1ccccc1)C(=O)O)C(=O)N[C@H](CO)Cc1ccccc1 | MT-4 |  |  | >100 µM |
| Cc1ccc(Cn2c(=O)ccn(CC#N)c2=O)cc1C | PBMC | IIIB |  | 3.75 µM |
| O=C1N(Cc2cccnc2)[C@H](Cc2ccccc2)[C@H](O)[C@@H](O)[C@@H](Cc2ccccc2)N1Cc1cccc(-c2ccn[nH]2)c1 | MT-2 | RF |  | <0.094 µM |
| Cc1cc(C)cc(Cn2c(=O)ccn(CCc3ccccc3)c2=O)c1 | PBMC | IIIB |  | 6.22 µM |
| CC(C)=CCN1Cc2cccc3[nH]c(=S)n(c23)C[C@@H]1C | HT4 + HT4-6C | BI-RG587-resistant |  | 1.7 µM |
| O=C1N[C@H](Cc2ccccc2)[C@H](O)[C@@H](O)[C@@H](Cc2ccccc2)N1Cc1cccc(-c2ccn[nH]2)c1 | MT-2 | RF |  | <0.067 µM |
| COC(C)(C)C(O)COc1c2ccoc2cc2oc(=O)ccc12 | H9 |  |  | 33.3 µg/mL |
| Cc1c(O)cccc1C(=O)N[C@@H](CSc1ccccc1)[C@H](O)CN1C[C@H]2CCCC[C@H]2C[C@H]1C(=O)NC(C)(C)C | MT-2 | NL4-3:IN7-3) |  | 0.02 µM |
| O=[N+]([O-])c1ccccc1S(=O)(=O)c1ccccc1 | CEM + CEM-SS | KELL |  | 4.6 µM |
| O=C1N(Cc2ccc(CO)cc2)[C@H](Cc2ccc3c(c2)OCCO3)[C@H](O)[C@@H](O)[C@@H](Cc2ccc3c(c2)OCCO3)N1Cc1ccc(CO)cc1 | MT-2 | RF |  | <0.083 µM |
| Cc1cn(-c2ccc3c(C)nc(CCCCCCC(=O)c4ccccc4)n3n2)cn1 | MT-4 | RF |  | 0.4 µM |
| Nc1ncnc2c1ncn2[C@@H]1CC[C@H](CO)O1 | PBMC |  |  | >100 µM |
| CCc1cc(NCc2nc3c(Cl)ccc(Cl)c3o2)c(=O)[nH]c1C | MT-4 | IIIB |  | <0.05 µM |
| O=c1[nH]cnc2c1ncn2[C@H]1CC[C@@H](CO)O1 | MT-2 | NL4-3 | INTG-G140S | 0.3 µM |
| CC(C)[C@H](NC(=O)[C@H](CCCN=C(N)N)NC(=O)N[C@@H](Cc1ccccc1)C(=O)O)C(=O)NC(C=O)Cc1ccccc1 | MT-4 |  |  | >41 µM |
| Nc1ncnc2c1ncn2/C=C1/C[C@H]1CO | CEM + CEM-SS |  |  | 11 µM |
| CC(=O)c1cccc(CN2C(=O)N(Cc3cccc(C(C)=O)c3)[C@H](Cc3ccc4c(c3)OCO4)[C@H](O)[C@@H](O)[C@H]2Cc2ccc3c(c2)OCO3)c1 | MT-2 | RF |  | <0.0147 µM |
| Cc1cn([C@H]2C[C@H](N=[N+]=[N-])[C@@H](CO)O2)c(=O)[nH]c1=O | PBMC | LAV |  | 0.002 µM |
| CC(C)=CCN1Cc2cccc3[nH]c(=S)n(c23)C[C@@H]1C | MT-4 | IIIB |  | <0.2 µM |
| Cc1cn([C@H]2C[C@H](N=[N+]=[N-])[C@@H](CO)O2)c(=O)[nH]c1=O | PBL | D34 |  | 0.006 µM |
| Nc1ccn([C@H]2O[C@@H](CO)C=C2F)c(=O)n1 | PBMC | xxBRU |  | <2.1 µM |
| O=C1Nc2ccc(Cl)cc2C(C#Cc2nccs2)(C2CC2)N1 | MT-4 | IIIB |  | <0.012 µM |
| O=c1[nH]c(=O)n([C@H]2C[C@H](F)[C@@H](CO)O2)cc1C#CI | PBMC |  |  | 6.9 µM |
| Cc1cn([C@H]2C[C@H](N=[N+]=[N-])[C@@H](CO)O2)c(=O)[nH]c1=O | PBMC | IIIB |  | 0.0019 µM |
| Cc1cn([C@H]2C[C@H](N=[N+]=[N-])[C@@H](CO)O2)c(=O)[nH]c1=O | Monocytes/macrophages | DAS |  | 0.005 µM |
| CC(=O)c1cccc(CN2C(=O)N(Cc3cccc(C(C)=O)c3)[C@H](Cc3ccc4c(c3)N(C)CCO4)[C@H](O)[C@@H](O)[C@H]2Cc2ccc3c(c2)N(C)CCO3)c1 | MT-2 | RF |  | <0.0164 µM |
| COC(=O)CCC(C)[C@H]1CCC2C3CC[C@@H]4C[C@H](OC(=O)c5ccccc5)CC[C@]4(C)C3=C(N)C(=O)[C@@]21C | C8166 | IIIB |  | 20 µM |
| Cc1cn([C@H]2C=C[C@@H](CO)O2)c(=O)[nH]c1=O | CEM + CEM TK- |  |  | 15 µM |
| C[C@H](Cn1cnc2c(N)ncnc21)OCP(=O)(O)O | TZM-bl | LAI | E138A | 8.7 µM |
| Cc1c(O)cccc1C(=O)N[C@@H](CSc1ccccc1)[C@H](O)CN1C[C@H]2CCCC[C@H]2C[C@H]1C(=O)NC(C)(C)C | MT-4 |  |  | <0.032 µM |
| Cc1c(O)cccc1C(=O)N[C@@H](Cc1ccccc1)[C@H](O)C(=O)N1CSC(C)(C)[C@H]1C(=O)NC(C)(C)C | CEM + CEM-SS | IIIB |  | 0.02 µM |
| Cc1cn([C@H]2C[C@H](N=[N+]=[N-])[C@@H](CO)O2)c(=O)[nH]c1=O | C8166 | IIIB |  | 0.016 µM |
| COc1ccc2ccc(=O)oc2c1CC=C(C)C | H9 |  |  | 0.155 µg/mL |
| CCOC(=O)NC1=C2C(CC[C@@H]3C[C@H](OC(=O)c4ccccc4)CC[C@]23C)C2CC[C@H](C(C)CCC(=O)OC)[C@@]2(C)C1=O | C8166 | IIIB |  | 20 µM |
| CC(=O)c1cccc(CN2C(=O)N(Cc3cccc(C(C)=O)c3)[C@H](Cc3ccc4c(c3)OCCO4)[C@H](O)[C@@H](O)[C@H]2Cc2ccc3c(c2)OCCO3)c1 | MT-2 | RF |  | <0.0042 µM |
| COc1cc(Cn2c(=O)ccn(CC#N)c2=O)cc(OC)c1OC | PBMC | IIIB |  | >377 µM |
| Nc1ncnc2c1ncn2[C@H]1C=C[C@@H](OCP(=O)(O)O)C12CC2 |  | WILD TYPE |  | 19.1 µM |
| Cc1ccnc2c1NC(=O)c1cccnc1N2C1CC1 | MT-4 |  | RT-M41L T215Y K103N | <3 µM |
| O=C1N(Cc2ccccc2)[C@H](Cc2ccc3c(c2)OCCO3)[C@H](O)[C@@H](O)[C@@H](Cc2ccc3c(c2)OCCO3)N1Cc1ccccc1 | MT-2 | RF |  | <0.112 µM |
| CC(C)=CCC/C(C)=C/CC/C(C)=C/Cc1c(O)cc(C)cc1O | MT-4 |  |  | >38 µM |
| CCOP(=O)(CO[C@@H]1[C@@H](O)[C@@H](O)[C@H](n2cnc3c(N)ncnc32)C12CC2)OCC |  | WILD TYPE |  | 88.9 µM |
| CCC[C@@]1(CCc2ccccc2)CC(O)=C([C@H](CC)c2cccc(NS(=O)(=O)c3ccc(C(F)(F)F)cn3)c2)C(=O)O1 | MT-4 | NL4-3 |  | 0.128 µM |
| CC1(C)OC1COc1c2ccoc2cc2oc(=O)ccc12 | H9 |  |  | 1.05 µg/mL |
| Nc1ccn([C@H]2CC[C@@H](CO)O2)c(=O)n1 | MT-4 | IIIB | ddI-1-resistant | 0.75 µM |
| O=C1N(Cc2ccc3ccccc3c2)[C@H](Cc2ccc3c(c2)OCCO3)[C@H](O)[C@@H](O)[C@@H](Cc2ccc3c(c2)OCCO3)N1Cc1ccc2ccccc2c1 | MT-2 | RF |  | <0.098 µM |

For reference, 10 entries again:

Cc1cccc(C)c1OCC(=O)N[C@@H](Cc1ccccc1)[C@H](O)C(=O)N1CSC(C)(C)[C@H]1C(=O)NC(C)(C)C ; cell line: MT-4 ; value: 1.73 µM
CC(C)[C@H](NC(=O)[C@H](CCCN=C(N)N)NC(=O)N[C@@H](Cc1ccccc1)C(=O)O)C(=O)N[C@H](CO)Cc1ccccc1 ; cell line: MT-4 ; value: >100 µM
C/C(=N\O)c1cccc(CN2C(=O)N(Cc3cccc(/C(C)=N/O)c3)[C@H](Cc3ccccc3)[C@H](O)[C@@H](O)[C@H]2Cc2ccccc2)c1 ; cell line: MT-2 ; strain: RF ; value: <0.002 µM
O=C1N[C@H](Cc2ccccc2)[C@H](O)[C@@H](O)[C@@H](Cc2ccccc2)N1Cc1cccc(-c2ccn[nH]2)c1 ; cell line: MT-2 ; strain: RF ; value: <0.067 µM
Cc1cc(C)cc(Cn2c(=O)ccn(CCc3ccccc3)c2=O)c1 ; cell line: PBMC ; strain: IIIB ; value: 6.22 µM
Nc1ccn([C@H]2O[C@@H](CO)C=C2F)c(=O)n1 ; cell line: PBMC ; strain: xxBRU ; value: <2.1 µM
CC1(C)OC1COc1c2ccoc2cc2oc(=O)ccc12 ; cell line: H9 ; value: 1.05 µg/mL
COc1cc(Cn2c(=O)ccn(CC#N)c2=O)cc(OC)c1OC ; cell line: PBMC ; strain: IIIB ; value: >377 µM
Cc1ccc(Cn2c(=O)ccn(CC#N)c2=O)cc1C ; cell line: PBMC ; strain: IIIB ; value: 3.75 µM
COC(C)(C)C(O)COc1c2ccoc2cc2oc(=O)ccc12 ; cell line: H9 ; value: 33.3 µg/mL

Blank or dashed fields: not listed here. ECn: concentration that inhibits the pathogen or its effect by n%.